Here are results for one molecule from patent publication US20130330358A1 (UNIVERSITY OF SOUTHERN CALIFORNIA, published 2013).

This test concerns the target T1, vIRF4^153-256 (Kaposi's-sarcoma-associated-herpesvirus …, UniProt Q2HR73 153-256).
T1 sequence: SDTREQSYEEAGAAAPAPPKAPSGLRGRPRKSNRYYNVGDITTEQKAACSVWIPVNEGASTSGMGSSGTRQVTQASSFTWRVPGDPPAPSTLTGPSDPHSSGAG
Briefly: ITC, titration against HAUSP TRAF domain, 20 °C.

B1: HAUSP TRAF domain (HAUSP^62-205) (enzyme)
chain: DTSWRSEATFQFTVERFSRLSESVLSPPCFVRNLPWKIMVMPRFYPDRPHQKSVGFFLQCNAESDSTSWSCHAQAVLKIINYRDDEKSFSRRISHLFFHKENDWGFSNFMAWSEVTDPEKGFIDDDKVTFEVFVQADAPHGVAW
As a reminder, the Kd is the constant that tells how readily two partners part at equilibrium. A lower Kd goes with tighter binding. On to B1, for which the Ka worked out at 1.32e+07 M⁻¹ and the Kd was 76 nM.
